PubChem BioAssay AID504761 | Drosophila RNAi Screening Center | 2011

Purpose: 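Genome-wide fly cell screen for genes dengue virus requires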 (primary screen)
Cell system: D.Mel-2 cells from Drosophila
Reagent: long dsRNA against Drosophila genes
Treatment: infection with dengue virus type 2; dose and infection time not stated
Measurement: 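Cells stained for dengue envelope protein and imaged; percent of infected cells per well on duplicate plates, ranked by infection, with stained nuclei counted for cell number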
Reading the numbers: infection score: higher = more virus-infected cells; cell count: higher = more cells in the well
Hit rule: 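Very low infection ranking in both replicate wells (chance probability at most 0.065), then a retest showing infection dropped 1.5-fold or more at p below 0.05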
Meaning of the calls: active = confirmed: knock-down lowers infection; inactive = not picked or not confirmed
The screen tested about 22,000 reagents; this is an unselected part of those that have a named target and a result. In the full data, 116 (0.52%) were called active. 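Calls depend on retest data that are not deposited; infection was ranked per plate without normalising between plates; the unit of the infection score is not given.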 The raw values are shown without normalisation. Unmarked entries are inactive. Not all columns of the deposit are shown. Not stated in the record: the amount of reagent, the time to read-out.

Depletion of Cyp4s3 [DRSC20241] gave: infection score, replicate 1 = 7.65; cell count, replicate 1 = 6709.
Cyp4s3 [DRSC22340] showed infection score, replicate 1 = 0.92; cell count, replicate 1 = 6085.
Cyp4s3 [DRSC24027] showed infection score, replicate 1 = 2.51; cell count, replicate 1 = 6222.
CR18228 [DRSC15317] gave infection score, replicate 1 = 4.92; cell count, replicate 1 = 7079.
tst [DRSC14212] showed infection score, replicate 1 = 3.66; cell count, replicate 1 = 6253.
Or69a [DRSC11243] showed infection score, replicate 1 = 3.01; cell count, replicate 1 = 6203.
Depletion of Or69a [DRSC25967] came out at: infection score, replicate 1 = 2.41; cell count, replicate 1 = 6589.
Silencing of spn-B [DRSC17063] resulted in: infection score, replicate 1 = 2.56; cell count, replicate 1 = 6640.
With knock-down of spn-B [DRSC26699], the screen gave infection score, replicate 1 = 7.17; cell count, replicate 1 = 5314.
CG4968 [DRSC02794] gave infection score, replicate 1 = 4.98; cell count, replicate 1 = 6712.
CG4968 [DRSC29740] scored infection score, replicate 1 = 18.9; cell count, replicate 1 = 6440.
With knock-down of CG12057 [DRSC17797], the record shows infection score, replicate 1 = 36.5; cell count, replicate 1 = 5701.
Knock-down of CG32811 [DRSC22649] resulted in: infection score, replicate 1 = 5.86; cell count, replicate 1 = 6895.
Knock-down of Hml [DRSC11183] came out at: infection score, replicate 1 = 2.31; cell count, replicate 1 = 5248.
